The data set deals with HepG2-NTCP cells. Nature of the data set: TMT-based phosphoproteome profiling of HBV-infected vs mock HepG2-NTCP (HBV/mock ratio). Details: species or system human. The following applies: sheet Up-regulated, HBV-infected vs mock HepG2-NTCP.
The mark [1] stands for this setting: phosphosites of host proteins deregulated at 7dpi.
Setting [2] is: phosphosite abundance ratio of host protein, 7dpi.

B1: P42224 1xPhospho [S727(100)] (protein, UniProt P42224 2-750, looked up)
Signal transducer and …: SQWYELQQLDSKFLEQVHQLYDDSFPMEIRQYLAQWLEKQDWEHAANDVSFATIRFHDLLSQLDDQYSRFSLENNFLLQHNIRKSKRNLQDNFQEDPIQMSMIIYSCLKEERKILENAQRFNQAQSGNIQSTVMLDKQKELDSKVRNVKDKVMCIEHEIKSLEDLQDEYDFKCKTLQNREHETNGVAKSDQKQEQLLLKKMYLMLDNKRKEVVHKIIELLNVTELTQNALINDELVEWKRRQQSACIGGPPNACLDQLQNWFTIVAESLQQVRQQLKKLEELEQKYTYEHDPITKNKQVLWDRTFSLFQQLIQSSFVVERQPCMPTHPQRPLVLKTGVQFTVKLRLLVKLQELNYNLKVKVLFDKDVNERNTVKGFRKFNILGTHTKVMNMEESTNGSLAAEFRHLQLKEQKNAGTRTNEGPLIVTEELHSLSFETQLCQPGLVIDLETTSLPVVVISNVSQLPSGWASILWYNMLVAEPRNLSFFLTPPCARWAQLSEVLSWQFSSVTKRGLNVDQLNMLGEKLLGPNASPDGLIPWTRFCKENINDKNFPFWLWIESILELIKKHLLPLWNDGCIMGFISKERERALLKDQQPGTFLLRFSESSREGAITFTWVERSQNGGEPDFHAVEPYTKKELSAVTFPDIIRNYKVMAAENIPENPLKYLYPNIDKDHAFGKYYSRPKEAPEPMELDGPKGTGYIKTELISVSEVHPSRLQTTDNLLPMSPEEFDEVSRIVGSVEFDSMMNTV
modifications: phosphorylated S727
For the molecule B1, the HBV/mock under setting [1] was determined as 1.305.

B2: Q9UK58 1xPhospho [S352(100)] (protein, UniProt Q9UK58 1-526, looked up)
Cyclin-L1: MASGPHSTATAAAAASSAAPSAGGSSSGTTTTTTTTTGGILIGDRLYSEVSLTIDHSLIPEERLSPTPSMQDGLDLPSETDLRILGCELIQAAGILLRLPQVAMATGQVLFHRFFYSKSFVKHSFEIVAMACINLASKIEEAPRRIRDVINVFHHLRQLRGKRTPSPLILDQNYINTKNQVIKAERRVLKELGFCVHVKHPHKIIVMYLQVLECERNQTLVQTAWNYMNDSLRTNVFVRFQPETIACACIYLAARALQIPLPTRPHWFLLFGTTEEEIQEICIETLRLYTRKKPNYELLEKEVEKRKVALQEAKLKAKGLNPDGTPALSTLGGFSPASKPSSPREVKAEEKSPISINVKTVKKEPEDRQQASKSPYNGVRKDSKRSRNSRSASRSRSRTRSRSRSHTPRRHYNNRRSRSGTYSSRSRSRSRSHSESPRRHHNHGSPHLKAKHTRDDLKSSNRHGHKRKKSRSRSQSKSRDHSDAAKKHRHERGHHRDRRERSRSFERSHKSKHHGGSRSGHGRHRR
modifications: phosphorylated S352
B2: the HBV/mock under setting [2] is given as 1.417.

B3: Q9UK58 2xPhospho [S335(100); S341(99.7)] (protein, UniProt Q9UK58 1-526, looked up)
Cyclin-L1: B2 Cyclin-L1
modifications: phosphorylated S335, S341
B3: the HBV/mock under setting [2] was 1.387.

B4: P25705 (protein, UniProt P25705 1-553, looked up)
chain: MLSVRVAAAVVRALPRRAGLVSRNALGSSFIAARNFHASNTHLQKTGTAEMSSILEERILGADTSVDLEETGRVLSIGDGIARVHGLRNVQAEEMVEFSSGLKGMSLNLEPDNVGVVVFGNDKLIKEGDIVKRTGAIVDVPVGEELLGRVVDALGNAIDGKGPIGSKTRRRVGLKAPGIIPRISVREPMQTGIKAVDSLVPIGRGQRELIIGDRQTGKTSIAIDTIINQKRFNDGSDEKKKLYCIYVAIGQKRSTVAQLVKRLTDADAMKYTIVVSATASDAAPLQYLAPYSGCSMGEYFRDNGKHALIIYDDLSKQAVAYRQMSLLLRRPPGREAYPGDVFYLHSRLLERAAKMNDAFGGGSLTALPVIETQAGDVSAYIPTNVISITDGQIFLETELFYKGIRPAINVGLSVSRVGSAAQTRAMKQVAGTMKLELAQYREVAAFAQFGSDLDAATQQLLSRGVRLTELLKQGQYSPMAIEEQVAVIYAGVRGYLDKLEPSKITKFENAFLSHVVSQHQALLGTIRADGKISEQSDAKLKEIVTNFLAGFEA
modifications: full-length
In the case of B4, under setting [2], the HBV/mock was 1.314.

B5: P54253 1xPhospho [S775(100)] (protein, UniProt P54253 1-815, looked up)
Ataxin-1: MKSNQERSNECLPPKKREIPATSRSSEEKAPTLPSDNHRVEGTAWLPGNPGGRGHGGGRHGPAGTSVELGLQQGIGLHKALSTGLDYSPPSAPRSVPVATTLPAAYATPQPGTPVSPVQYAHLPHTFQFIGSSQYSGTYASFIPSQLIPPTANPVTSAVASAAGATTPSQRSQLEAYSTLLANMGSLSQTPGHKAEQQQQQQQQQQQQHQHQQQQQQQQQQQQQQHLSRAPGLITPGSPPPAQQNQYVHISSSPQNTGRTASPPAIPVHLHPHQTMIPHTLTLGPPSQVVMQYADSGSHFVPREATKKAESSRLQQAIQAKEVLNGEMEKSRRYGAPSSADLGLGKAGGKSVPHPYESRHVVVHPSPSDYSSRDPSGVRASVMVLPNSNTPAADLEVQQATHREASPSTLNDKSGLHLGKPGHRSYALSPHTVIQTTHSASEPLPVGLPATAFYAGTQPPVIGYLSGQQQAITYAGSLPQHLVIPGTQPLLIPVGSTDMEASGAAPAIVTSSPQFAAVPHTFVTTALPKSENFNPEALVTQAAYPAMVQAQIHLPVVQSVASPAAAPPTLPPYFMKGSIIQLANGELKKVEDLKTEDFIQSAEISNDLKIDSSTVERIEDSHSPGVAVIQFAVGEHRAQVSVEVLVEYPFFVFGQGWSSCCPERTSQLFDLPCSKLSVGDVCISLTLKNLKNGSVKKGQPVDPASVLLKHSKADGLAGSRHRYAEQENGINQGSAQMLSENGELKFPEKMGLPAAPFLTKIEPSKPAATRKRRWSAPESRKLEKSEDEPPLTLPKPSLIPQEVKICIEGRSNVGK
modifications: phosphorylated S775
B5: the HBV/mock under setting [2] was found to be 1.71.

B6: O75152 1xPhospho [S108(100)] (protein, UniProt O75152 1-810, looked up)
Zinc finger CCCH …: MPNQGEDCYFFFYSTCTKGDSCPFRHCEAAIGNETVCTLWQEGRCFRQVCRFRHMEIDKKRSEIPCYWENQPTGCQKLNCAFHHNRGRYVDGLFLPPSKTVLPTVPESPEEEVKASQLSVQQNKLSVQSNPSPQLRSVMKVESSENVPSPTHPPVVINAADDDEDDDDQFSEEGDETKTPTLQPTPEVHNGLRVTSVRKPAVNIKQGECLNFGIKTLEEIKSKKMKEKSKKQGEGSSGVSSLLLHPEPVPGPEKENVRTVVRTVTLSTKQGEEPLVRLSLTERLGKRKFSAGGDSDPPLKRSLAQRLGKKVEAPETNIDKTPKKAQVSKSLKERLGMSADPDNEDATDKVNKVGEIHVKTLEEILLERASQKRGELQTKLKTEGPSKTDDSTSGARSSSTIRIKTFSEVLAEKKHRQQEAERQKSKKDTTCIKLKIDSEIKKTVVLPPIVASRGQSEEPAGKTKSMQEVHIKTLEEIKLEKALRVQQSSESSTSSPSQHEATPGARRLLRITKRTGMKEEKNLQEGNEVDSQSSIRTEAKEASGETTGVDITKIQVKRCETMREKHMQKQQEREKSVLTPLRGDVASCNTQVAEKPVLTAVPGITRHLTKRLPTKSSQKVEVETSGIGDSLLNVKCAAQTLEKRGKAKPKVNVKPSVVKVVSSPKLAPKRKAVEMHAAVIAAVKPLSSSSVLQEPPAKKAAVAVVPLVSEDKSVTVPEAENPRDSLVLPPTQSSSDSSPPEVSGPSSSQMSMKTRRLSSASTGKPPLSVEDDFEKLIWEISGGKLEAEIDLDPGKDEDDLLLELSEMIDS
modifications: phospho S108
On to B6, for which the HBV/mock under setting [1] is on record as 1.451.

B7: Q86VP6 1xPhospho [T/S] (protein, UniProt Q86VP6 2-1230, looked up)
Cullin-associated …: ASASYHISNLLEKMTSSDKDFRFMATNDLMTELQKDSIKLDDDSERKVVKMILKLLEDKNGEVQNLAVKCLGPLVSKVKEYQVETIVDTLCTNMLSDKEQLRDISSIGLKTVIGELPPASSGSALAANVCKKITGRLTSAIAKQEDVSVQLEALDIMADMLSRQGGLLVNFHPSILTCLLPQLTSPRLAVRKRTIIALGHLVMSCGNIVFVDLIEHLLSELSKNDSMSTTRTYIQCIAAISRQAGHRIGEYLEKIIPLVVKFCNVDDDELREYCIQAFESFVRRCPKEVYPHVSTIINICLKYLTYDPNYNYDDEDEDENAMDADGGDDDDQGSDDEYSDDDDMSWKVRRAAAKCLDAVVSTRHEMLPEFYKTVSPALISRFKEREENVKADVFHAYLSLLKQTRPVQSWLCDPDAMEQGETPLTMLQSQVPNIVKALHKQMKEKSVKTRQCCFNMLTELVNVLPGALTQHIPVLVPGIIFSLNDKSSSSNLKIDALSCLYVILCNHSPQVFHPHVQALVPPVVACVGDPFYKITSEALLVTQQLVKVIRPLDQPSSFDATPYIKDLFTCTIKRLKAADIDQEVKERAISCMGQIICNLGDNLGSDLPNTLQIFLERLKNEITRLTTVKALTLIAGSPLKIDLRPVLGEGVPILASFLRKNQRALKLGTLSALDILIKNYSDSLTAAMIDAVLDELPPLISESDMHVSQMAISFLTTLAKVYPSSLSKISGSILNELIGLVRSPLLQGGALSAMLDFFQALVVTGTNNLGYMDLLRMLTGPVYSQSTALTHKQSYYSIAKCVAALTRACPKEGPAVVGQFIQDVKNSRSTDSIRLLALLSLGEVGHHIDLSGQLELKSVILEAFSSPSEEVKSAASYALGSISVGNLPEYLPFVLQEITSQPKRQYLLLHSLKEIISSASVVGLKPYVENIWALLLKHCECAEEGTRNVVAECLGKLTLIDPETLLPRLKGYLISGSSYARSSVVTAVKFTISDHPQPIDPLLKNCIGDFLKTLEDPDLNVRRVALVTFNSAAHNKPSLIRDLLDTVLPHLYNETKVRKELIREVEMGPFKHTVDDGLDIRKAAFECMYTLLDSCLDRLDIFEFLNHVEDGLKDHYDIKMLTFLMLVRLSTLCPSAVLQRLDRLVEPLRATCTTKVKANSVKQEFEKQDELKRSAMRAVAALLTIPEAEKSPLMSEFQSQISSNPELAAIFESIQKDSSSTNLESMDTS
modifications: phosphorylated
Turning to B7, under setting [2], the HBV/mock stood at 1.354.

These data come from paper PMC9104152, “Phosphoproteomics Unravel HBV Triggered Rewiring of Host Phosphosignaling Events” (International Journal of Molecular Sciences, 2022).
